Measurements reported in patent US9822115B2, “Nitrogen containing compounds and their use as antibacterial agents” (WOCKHARDT LIMITED, priority 2014, dated 2017).
Read-outs that look alike come from different tables or passages of the source.

Protein sequences, listed by entry. Tags and fused reporters are not part of them. Residues count along the entry.
UniProt P0AD64, 22-286 R39S/G234A/E235K: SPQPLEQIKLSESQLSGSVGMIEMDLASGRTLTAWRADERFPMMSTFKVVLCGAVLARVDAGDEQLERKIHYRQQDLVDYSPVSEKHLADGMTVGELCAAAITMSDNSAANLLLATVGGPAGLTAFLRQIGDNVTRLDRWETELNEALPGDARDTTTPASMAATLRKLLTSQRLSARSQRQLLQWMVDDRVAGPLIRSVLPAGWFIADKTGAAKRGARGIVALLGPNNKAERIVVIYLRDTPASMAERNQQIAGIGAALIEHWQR

Biological target: T1, Class A beta-lactamase, K. pneumoniae ATCC 700603 (SHV 18) (Klebsiella pneumoniae, UniProt P0AD64, E235K/G234A/R39S)
T1 construct: preincubated mixture of crude enzyme and the agents; endogenous in cells; host or cells: K. pneumoniae ATCC 700603
Assay: biochemical
Type: biochemical
Procedure: Determination of enzyme inhibition activity: Concentration of the inhibitor required to inhibit 50% of enzymatic activity was measured by adding a chromogenic substrate, Nitrocefin (100 uM, 5 min) to the preincubated mixture of crude enzyme and the agents (37° C., 10 min). Absorbance was measured at 485 nm by UV-spectrophotometer. The IC50 was calculated by plotting absorbance against concentration through Sigmoidal dose response curve using Graph Pad software.
The enzyme inhibition was expressed as IC50.

[1] = Class A K. pneumoniae ATCC 700603 (SHV 18), read-out: Beta-lactamase enzyme inhibition IC50

Nc1ccc(CC(=O)NNC(=O)[C@@H]2CC[C@@H]3CN2C(=O)N3OS(=O)(=O)O)c(F)c1 [Example 17, (2S,5R)-sulfuric acid mono-[2-(N′-(4-amino-2-fluorophenyl-acetyl)-hydrazinocarbonyl)-7-oxo-1,6-diaza-bicyclo[3.2.1]oct-6-yl]ester]
IC50: 18 nM

sodium salt of (2S,5R)-succinic acid tert-butyl ester 4-{2-oxo-2-[N′-(7-oxo-6-sulphooxy-1,6-diaza-bicyclo[3.2.1]octane-2-carbonyl)-hydrazino]ethyl}-phenyl ester [Example 27]
IC50 [1]: 18 nM

sodium salt of (2S,5R)-sulfuric acid mono-[2-(N′-(3,3-diphenyl-propionyl)-hydrazinocarbonyl)-7-oxo-1,6-diaza-bicyclo[3.2.1]oct-6-yl]ester [Example 7]
IC50 [1]: 70 nM
